Anti-infective test results gathered from many reports (values: NIAID ChemDB through PubChem).

Shared fields: host cell toxicity; cells: VERO; measure: CC50

An empty or dashed field is not shown. CCn is the concentration with n% toxicity to the cells. Neighbouring rows are from separate reports.

smiles,method,value
Nc1ncnc2c1ncn2[C@@H]1O[C@H](CCl)C[C@H]1O,-,40 µg/mL
CC(=O)O[C@H]1C[C@H]2C(C)(C)CCC[C@]2(C)[C@@]23CCC(C)(C2)[C@H](OC(C)=O)C[C@H]13,-,50 µg/mL
COc1cc2c(cc1OC)CN(c1c([N+](=O)[O-])cc3c(=O)c(C(=O)O)cn(C4CC4)c3c1C)CC2,-,130 µM
CCOC(=O)CCSC1=CC(=O)c2nc3ccccc3c3ccnc1c23,-,5.8 µM
Nc1nccc2c1ncn2[C@@H]1O[C@H](CSCCC(N)C(=O)O)C[C@H]1O,-,400 µg/mL
CCOC(=O)C1=C(C)NC(C)=C(C(=O)OCC)C1c1cn(-c2ccccc2)nc1-c1ccc(F)cc1,MTT,>10 µg/mL
C[C@@H]1CC[C@H]2C(C)(C)[C@H](O)CC[C@]2(C)C12Cc1c(O)cc(C=O)c(C=O)c1O2,-,24.3 µg/mL
C#Cc1cnc(C(=O)c2ccccc2)nc1C(=O)c1ccccc1,trypan blue,>100 µM
O=S1(=O)C[C@H](O)[C@@H](O)CS1,-,352.8 µM
CO[C@H](CO)[C@@H](O)CCn1ccc(N)nc1=O,-,>400 µg/mL
CCOC(=O)C1=C(C)NC(C)=C(C(=O)OCC)C1c1cn(-c2ccccc2)nc1-c1ccc([N+](=O)[O-])cc1,MTT,8.83 µg/mL
O=[N+]([O-])c1cccc(SSc2cccc([N+](=O)[O-])c2)c1,-,143.1 µM
O=C([O-])C(F)(F)F.[NH3+]CCNC1=CC(=O)c2nc3ccccc3c3ccnc1c23,-,2.1 µM
CCCCS(=O)(=O)Nc1ccc2[nH]c(C(=O)NCc3ccc(Cl)cc3)c(C)c2c1,resazurin,>110 µM
Cc1c(N2C[C@@H](C)O[C@@H](C)C2)c([N+](=O)[O-])cc2c(=O)c(C(=O)O)cn(C3CC3)c12,-,155.7 µM
CC1(C)CCC[C@@]2(C)[C@H]1CC[C@H]1C[C@@H](O)C3(C)CC[C@]12C3,-,32 µg/mL
O=C(Nc1cccc(Cl)c1)c1ccc([N+](=O)[O-])o1,-,6.86 µg/mL
Cc1c(N2CCC(n3c(=O)[nH]c4cc(Cl)ccc43)CC2)c([N+](=O)[O-])cc2c(=O)c(C(=O)O)cn(C3CC3)c12,-,116 µM
CCCCS(=O)(=O)Nc1ccc2[nH]c(C(=O)N[C@H](C)c3ccccc3)c(C)c2c1,resazurin,30.2 µM
CC12CC[C@]3(C1)[C@@H](CC[C@H]1C(C)(C)CCC[C@@]13C)CC2=O,-,28 µg/mL
CC(CC[C@@H](C)C1CCC2C3C[C@H](COS(=O)(=O)O)C4C[C@H](OS(=O)(=O)O)[C@@H](OS(=O)(=O)O)C[C@]4(C)C3CC[C@@]21C)C(C)(C)C.[Na+].[Na+].[Na+],MTT,13.83 µg/mL
CC[C@H]1OC(=O)[C@H](C)C(=O)[C@H](C)[C@@H](O[C@@H]2O[C@H](C)C[C@H](N(C)C)[C@H]2O)[C@](C)(OC)C[C@@H](C)C(=O)[C@H](C)[C@H]2N(CCCCCc3ccccc3)C(=O)O[C@]12C,-,8.84 µM
CC(C)(C)C(=O)OCn1nc([C@@H]2O[C@H](CO)[C@@H](O)[C@H]2O)c2ncnc(N)c21,-,40 µg/mL
COc1cc2c(cc1OC)C(=O)[C@]1(C2)[C@@H](c2ccc(F)cc2)[C@@H]2CSCN2[C@@]12C(=O)N(N1CCOCC1)c1ccccc12,MTT,>62.5 µg/mL
CC(C)(C)OC(=O)NCCNC1=CC(=O)c2nc3ccccc3c3ccnc1c23,-,>25 µM
Cc1cn(CC[C@H](O)CCO)c(=O)[nH]c1=O,-,>400 µg/mL
COc1cc2c(cc1OC)C(=O)[C@]1(C2)[C@@H](c2ccccc2Cl)[C@@H]2CSCN2[C@@]12C(=O)N(N1CCOCC1)c1ccccc12,MTT,>62.5 µg/mL
CCCCCCCCCCCC(=O)Nc1nc(N)nc2c1ncn2[C@H]1CO[C@@H](COP(=O)(N[C@@H](C)C(=O)OCC)Oc2ccccc2)O1,-,45 µM
Nc1nc2c(ncn2[C@@H]2O[C@H](CO)C[C@@H]2F)c(=O)[nH]1,-,39 µM
Cc1ccc(SC2=CC(=O)c3nc4ccccc4c(C)c3C2=O)cc1,-,23.8 µM
CC1(C)CCCC2=C1CC[C@@]13CCC(C)(C[C@@]21C)C(=O)C3,-,35 µg/mL
C#Cc1cnc(C(C)=O)nc1C(C)=O,trypan blue,>100 µM
CCCCS(=O)(=O)Nc1ccc2[nH]c(C(=O)NC3(c4ccccc4)CC3)c(C)c2c1,resazurin,59 µM
Nc1ccn(CC[C@H](O)CCO)c(=O)n1,-,>400 µg/mL
CN(C(=O)c1ccc([N+](=O)[O-])o1)c1ccccc1,-,23.75 µg/mL
O=C(O[C@@H]1[C@@H]2C(=O)c3cc(O)c(O)c(O)c3-c3c(cc(O)c(O)c3O)C(=O)OC[C@H]2OC(O)[C@@H]1O)c1cc(O)c(O)c(O)c1,-,18.13 µg/mL
C#Cc1cnc(OC)nc1OC,trypan blue,>100 µM
CC[C@H]1OC(=O)[C@H](C)C(=O)[C@H](C)[C@@H](O[C@@H]2O[C@H](C)C[C@H](N(C)C)[C@H]2O)[C@](C)(OC)C[C@@H](C)C(=O)[C@H](C)[C@H]2N(CC/C=C/c3ccccc3)C(=O)O[C@]12C,-,>104.8 µM
Cc1c(N2CCC3(CC2)OCCO3)c([N+](=O)[O-])cc2c(=O)c(C(=O)O)cn(C3CC3)c12,-,146 µM
CCCCCCCC(=O)N(O)CC1=C(C(=O)O)N2C(=O)[C@@H](NC(=O)Cc3ccccc3)C2SC1,-,14.6 µM
Cc1c(-c2ccc(C(c3ccccc3)N3CCN(C)CC3)cc2)c([N+](=O)[O-])cc2c(=O)c(C(=O)O)cn(C3CC3)c12,-,109 µM
COc1ccc(NC(=O)c2ccc([N+](=O)[O-])o2)cc1,-,21.44 µg/mL
O=C(Cc1ccccc1)N[C@@H]1C(=O)N2C3=C(CSC12)CN(C(=O)c1ccc(F)cc1)OC3=O,-,>128 µM
CCCCS(=O)(=O)Nc1ccc2[nH]c(C(=O)NCc3ccccc3)c(C)c2c1,resazurin,>130 µM
CCCCCCCCCC(=O)Nc1nc(N)nc2c1ncn2[C@H]1CO[C@@H](COP(=O)(N[C@@H](C)C(=O)OCC)Oc2ccccc2)O1,-,13 µM
COc1ccc([C@H]2[C@@H]3CSCN3[C@@]3(C(=O)Nc4ccc(OC(F)(F)F)cc43)[C@@]23Cc2cc(OC)c(OC)cc2C3=O)cc1OC,MTT,>62.5 µg/mL
CCCCS(=O)(=O)Nc1ccc2[nH]c(C(=O)NCc3cccc(F)c3)c(C)c2c1,resazurin,>120 µM
COC(=O)CC(=O)O[C@@H]1C[C@@H]2[C@@H](OC(C)=O)C[C@H]3C(C)(C)CCC[C@]3(C)[C@]23CCC1(C)C3,-,30 µg/mL
Nc1ncnc2c([C@H]3C[C@H](O)[C@@H](CO)O3)[nH]nc12,-,400 µg/mL
C[C@@H](NC(=O)c1ccc([N+](=O)[O-])o1)c1ccccc1,-,23.59 µg/mL
CCCCS(=O)(=O)Nc1ccc2[nH]c(C(=O)NC3CCCc4ccccc43)c(C)c2c1,resazurin,28.4 µM
CO[C@H](CO)[C@@H](O)CCn1cc(C)c(=O)[nH]c1=O,-,>400 µg/mL
COc1ccc(C(=O)N(O)CC2=C(C(=O)O)N3C(=O)[C@@H](NC(=O)Cc4ccccc4)C3SC2)cc1,-,>128 µM
COc1cc2c(cc1OC)C(=O)[C@]1(C2)[C@@H](c2ccccc2)[C@@H]2CSCN2[C@@]12C(=O)Nc1ccc(OC(F)(F)F)cc12,MTT,>62.5 µg/mL
O=[N+]([O-])c1nccn1CCCNc1ccnc2cc(Cl)ccc12,-,146.7 µg/mL
C#Cc1c[nH]c(=O)[nH]c1=O,trypan blue,>100 µM
O=C(NCCNC1=CC(=O)c2nc3ccccc3c3ccnc1c23)c1cnccn1,-,>25 µM
CCCCCCCC/C=C\CCCCCCCC(=O)Nc1nc(N)nc2c1ncn2[C@H]1CO[C@@H](COP(=O)(N[C@@H](C)C(=O)OCC)Oc2ccccc2)O1,-,13 µM
CCOC(=O)c1[nH]c2ccc(N)cc2c1C,resazurin,110 µM
CCOC(=O)[C@H](C)NP(=O)(OC[C@@H]1OC[C@H](n2cnc3c(NC(C)=O)nc(N)nc32)O1)Oc1ccccc1,-,>100 µM
CC12CC3C4(CC[C@H]5C(C)(C)CCC[C@]5(C)[C@]34C1)CC2=O,-,40 µg/mL
CC(=O)NC(CCSC[C@H]1O[C@@H](n2ccc3c(N)ncnc32)[C@H](O)[C@@H]1O)C(=O)OC(C)C,-,200 µg/mL
CCOC(=O)C1=C(C)NC(C)=C(C(=O)OCC)C1c1cn(-c2ccccc2)nc1-c1ccccc1,MTT,>10 µg/mL
CC[C@H]1OC(=O)[C@H](C)C(=O)[C@H](C)[C@@H](O[C@@H]2O[C@H](C)C[C@H](N(C)C)[C@H]2O)[C@](C)(OC)C[C@@H](C)C(=O)[C@H](C)[C@H]2N(NCCCCCCc3ccnc4ccccc34)C(=O)O[C@]12C,-,7.32 µM
CCCCS(=O)(=O)Nc1ccc2[nH]c(CNC(C)=O)c(C)c2c1,resazurin,>150 µM
CCCC(=O)Nc1nc(N)nc2c1ncn2[C@H]1CO[C@@H](COP(=O)(N[C@@H](C)C(=O)OCC)Oc2ccccc2)O1,-,>100 µM
O=C1C=C(NCCO)c2nccc3c2c1nc1ccccc13,-,12.7 µM
O=C(NCc1ccco1)c1ccc([N+](=O)[O-])o1,-,4.08 µg/mL
CC[C@H]1OC(=O)[C@H](C)C(=O)[C@H](C)[C@@H](O[C@@H]2O[C@H](C)C[C@H](N(C)C)[C@H]2O)[C@@](C)(C/C=C/c2cnc3ccccc3c2)C[C@@H](C)C(=O)[C@H](C)[C@H]2NC(=O)O[C@@]21C,-,>102.4 µM
CCCCCCCCSC1=CC(=O)c2nc3ccccc3c3ccnc1c23,-,14.1 µM

Repeating the first 4 entries:

Nc1ncnc2c1ncn2[C@@H]1O[C@H](CCl)C[C@H]1O ; value: 40 µg/mL
CC(=O)O[C@H]1C[C@H]2C(C)(C)CCC[C@]2(C)[C@@]23CCC(C)(C2)[C@H](OC(C)=O)C[C@H]13 ; value: 50 µg/mL
COc1cc2c(cc1OC)CN(c1c([N+](=O)[O-])cc3c(=O)c(C(=O)O)cn(C4CC4)c3c1C)CC2 ; value: 130 µM
CCOC(=O)CCSC1=CC(=O)c2nc3ccccc3c3ccnc1c23 ; value: 5.8 µM